PubChem BioAssay AID1224833 | University of Georgia – 2016
The whole screen tested about 12,000 reagents; below is an unselected part. In the full data, about 5,600 (46%) are marked active. 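Active calls cover z-scores past 1 in both directions, so they include lowered as well as raised rotavirus replication.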

Purpose: 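Host factors restraining rotavirus as candidate antiviral genes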 (primary screen)
System: monkey MA104 kidney cells
Knock-down reagent: siRNA pool against human genes, 50 nM
Timing: 48 h knock-down before infection; read 24 h after infection
Treatment: infection with rotavirus strain RV3 two days after transfection; infectious dose for this stage not given
Read-out: 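Rotavirus antigen per well by fluorescent immunoassay, normalised to non-targeting control wells on each plate and given as a standard z-score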
Direction: z-score vs non-targeting control: higher = more rotavirus replication than with non-targeting control
Active means: In these data the active calls have z-score vs non-targeting control at about -1 or lower, or at about 1 or higher
Meaning of the calls: active = z-score beyond 1 either way; inactive = z-score within 1 of zero

| gene symbol | z-score vs non-targeting control | Call |
| --- | --- | --- |
| ETFDH (electron transfer flavoprotein dehydrogenase) | -1.62 | active |
| WRNIP1 (WRN helicase interacting protein 1) | -1.32 | active |
| CDC50B (cell division cycle 50 P4-ATPase accessory subunit B) | 0.999 | inactive |
| SACK1H (scaffolding CK1 anchoring protein H) | -0.471 | inactive |
| FAM120B (family with sequence similarity 120 member B) | 0.194 | inactive |
| TP53BP1 (tumor protein p53 binding protein 1) | 0.754 | inactive |
| TBC1D10A (TBC1 domain family member 10A) | 0.722 | inactive |
| ZNF660 (zinc finger protein 660) | 0.865 | inactive |
| PIGF (phosphatidylinositol glycan anchor biosynthesis class F) | -1.9 | active |
| RPL10 (ribosomal protein L10) | 0.0027 | inactive |
| CXXC5 (CXXC finger protein 5) | -0.47 | inactive |
| MBD1 (methyl-CpG binding domain protein 1) | -0.875 | inactive |
| MTHFD1 | -0.646 | inactive |
| RASA4 (RAS p21 protein activator 4) | -0.601 | inactive |
| POLA1 (DNA polymerase alpha 1, catalytic subunit) | -1.84 | active |

Targets above whose target name starts with T or t (2):
| gene symbol | z-score vs non-targeting control | Call |
| --- | --- | --- |
| TP53BP1 (tumor protein p53 binding protein 1) | 0.754 | inactive |
| TBC1D10A (TBC1 domain family member 10A) | 0.722 | inactive |

Additional results:
| gene symbol | z-score vs non-targeting control | Call |
| --- | --- | --- |
| MICU3 (mitochondrial calcium uptake 3) | -1.63 | active |
| DGCR8 (DGCR8 microprocessor complex subunit) | -0.102 | inactive |
| APOM (apolipoprotein M) | -1.67 | active |
| ANKRD49 (ankyrin repeat domain 49) | 1.5 | active |
| ZNF623 (zinc finger protein 623) | 1.16 | active |
| GPATCH2 (G-patch domain containing 2) | 1.51 | active |
| RUNX3 (RUNX family transcription factor 3) | -0.52 | inactive |
| WDR74 (WD repeat domain 74) | 1.29 | active |
| LRRTM2 (leucine rich repeat transmembrane neuronal 2) | -0.797 | inactive |
| ARHGAP5 (Rho GTPase activating protein 5) | -1.56 | active |
| PSG4 (pregnancy specific beta-1-glycoprotein 4) | -0.821 | inactive |
| SLC30A10 | 0.753 | inactive |
| SDCBP2 (syndecan binding protein 2) | -0.733 | inactive |
| ZBTB32 (zinc finger and BTB domain containing 32) | 0.748 | inactive |
| HSPG2 (heparan sulfate proteoglycan 2) | -0.682 | inactive |
| ACOT8 (acyl-CoA thioesterase 8) | -0.6 | inactive |
| HEBP1 (heme binding protein 1) | -0.575 | inactive |
| CSDC2 (cold shock domain containing C2) | 1.42 | active |
| USP29 (ubiquitin specific peptidase 29) | 0.562 | inactive |
| CXorf65 (chromosome X open reading frame 65) | -1.3 | active |
| TIFA (TRAF interacting protein with forkhead associated domain) | -0.0192 | inactive |
| IQCB1 (IQ motif containing B1) | -0.549 | inactive |
| SLC33A1 | -1.08 | active |
| LMO1 (LIM domain only 1) | -1.12 | active |
| POLH (DNA polymerase eta) | -0.619 | inactive |
| RELCH | 0.425 | inactive |
| TBPL1 (TATA-box binding protein like 1) | -0.573 | inactive |
| ARHGAP35 (Rho GTPase activating protein 35) | -1.79 | active |
| ZP2 (zona pellucida glycoprotein 2) | 0.306 | inactive |
| CTTNBP2NL (CTTNBP2 N-terminal like) | -0.54 | inactive |
